Experiment in all cases: purified protein
Data set [1] concerns CC(=O)Oc1ccc([N+](=O)[O-])cc1. The conditions noted are these: pH 7.6; 37.0 °C.
In data set [2] the test system is CCCCCCCCCCCCCCCC(=O)SCCNC(=O)CCNC(=O)[C@H](O)C(C)(C)COP(=O)(O)OP(=O)(O)OC[C@H]1O[C@@H](n2cnc3c(N)ncnc32)[C@H](O)[C@@H]1OP(=O)(O)O. The conditions noted are these: pH 7.2.
The subject of data set [3] is CCCC(=O)Oc1ccc([N+](=O)[O-])cc1. The conditions noted are these: pH 7.6; 37.0 °C.

The record followed here is article doi:10.1101/2025.07.07.663466v1 (biorxiv, 2025).

For the substance “M. tuberculosis GroEL1 (Cpn60.1) (Mycobacterium tuberculosis H37Rv)”, the Km (usually the substrate concentration at which the rate is half of its maximum) in data set [1] was found to be 1130 ± 740 µM; in data set [2], 25.95 ± 3.52 µM; in data set [3], 180 ± 80 µM.
